Source: US8987217B2, “Modified saponins for the treatment of fungal infections” (The General Hospital Corporation, priority 2010, dated 2015)

Key:
C. albicans cells [1] = assay: photosensitizer uptake by fluorescence spectrofluorimetry; format: cell-based; conditions: for uptake of photosensitizer, PS: PS alone, 10^8 CFU/ml, PDI concentrations; for uptake of photosensitizer, +A16 (1 hr): with 4 μg/ml A16, 1 hr; for uptake of photosensitizer, +A16 (24 hrs): with 4 μg/ml A16, 24 hrs
Procedure: In order to confirm that the increase in phototoxicity observed by combining the different PS with A16 is actually due to an increase of cellular uptake of the PS by the cells and to document that the antifungal efficacy of saponins against C. albicans is associated with increased permeability, the amount of dye within the cell was measured by fluorescence spectrofluorimetry.
Cell suspensions (10^8 cells/mL) were incubated in the dark as above using the same concentrations as for the PDI assays measured as μM PS equivalent (final concentration in incubation medium). Incubations were carried out in triplicate. Cell suspensions were centrifuged (12000 rpm, 1 min) and washed twice in 1 mL sterile PBS. The cell pellet was dissolved in 1.5 mL 0.1 M NaOH/1% SDS for 24 h to yield a homogenous solution. Uptake was determined by measurement of fluorescence in black 96-well flat-bottom plates (Costar) in a final volume of 200 μL using a Spectramax Gemini spectrofluorimeter (Molecular Devices) at 400 nmex/580-700 nmem for ce6, PEI-ce6 and 552 nmex/555-620 nmem for RB. Uptake values were obtained as previously described (Tegos et al., Antimicrob Agents Chemother, 50:196-203(2006)).
The cellular uptake of dye can be expressed as molecules per cell by correlation of the extracted PS concentration with the number of C. albicans cells present.

C. albicans cells [2] = assay: confocal laser scanning microscopy of ce6 internalization; format: cell-based

Row | Compound | uptake of photosensitizer, PS (C. albicans cells [1]) | uptake of photosensitizer, +A16 (1 hr) (C. albicans cells [1]) | uptake of photosensitizer, +A16 (24 hrs) (C. albicans cells [1]) | internalization of ce6 into C. albicans cells (C. albicans cells [2]; ce6 alone, one hour incubation) | internalization of ce6 into C. albicans cells (C. albicans cells [2]; ce6 and A16, 24 hour incubation) | internalization of ce6 into C. albicans cells (C. albicans cells [2]; ce6 and A16 together, one hour)
1 | O=C1OC2(c3cc(I)c(O)c(I)c3Oc3c2cc(I)c(O)c3I)c2c(Cl)c(Cl)c(Cl)c(Cl)c21 [RB, Rose Bengal] | 3.8 ± 0.6 molecules/cell | 4.55 ± 0.5 molecules/cell | 9.12 ± 0.22 molecules/cell | – | – | –
2 | C=Cc1c(C)c2cc3nc(c(CC(=O)O)c4[nH]c(cc5nc(cc1[nH]2)C(C)=C5CC)c(C)c4C(=O)O)[C@@H](CCC(=O)O)[C@@H]3C [ce6, chlorin(e6)] | 0.81 ± 0.06 molecules/cell | 3.1 ± 0.25 molecules/cell | 9.1 ± 0.15 molecules/cell | no apparent internalization | dramatic increase in the concentration of ce6 inside the fungal cells | internalization of ce6 is visible
